Measurements reported in PubChem BioAssay AID504761 (Drosophila RNAi Screening Center, 2011).

Aim: 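Fly genes whose silencing reduces dengue virus type 2 infection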 (primary screen)
Cells: D.Mel-2 cells from Drosophila
Reagent: long dsRNA against Drosophila genes
Treatment: infection with dengue virus type 2; dose and infection time not stated
Detection: 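Cells stained for dengue envelope protein and imaged; percent of infected cells per well on duplicate plates, ranked by infection, with stained nuclei counted for cell number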
Direction: infection score: higher = more virus-infected cells
Active means: 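Very low infection ranking in both replicate wells (chance probability at most 0.065), then a retest showing infection dropped 1.5-fold or more at p below 0.05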
Calls: active = confirmed: knock-down lowers infection; inactive = not picked or not confirmed
The screen tested about 22,000 reagents; this is an unselected part of those that have a named target and a result. In the full data, 116 (0.52%) were called active. 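Calls depend on retest data that are not deposited; infection was ranked per plate without normalising between plates; the unit of the infection score is not given.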 Unmarked entries are inactive. Not all columns of the deposit are shown. The record does not give: the amount of reagent, the time to read-out.

| Target gene | PubChem SID | infection score, replicate 1 | infection score, replicate 2 |
| --- | --- | --- | --- |
| CG11674 | SID104199206 | 4.94 | 2.24 |
| Diap1 | SID104191196 | – | 0.33 |
| stil | SID104187491 | 25.9 | 9.3 |
| CG31008 | SID104193820 | 0.74 | – |
| CG31008 | SID104205778 | 3.9 | 9.02 |
| CG18273 | SID104197942 | 8.91 | 6.68 |
| CG18273 | SID104198297 | 3.8 | 6.24 |
| Mesh1 | SID104194225 | 5.33 | – |
| Burs | SID104194387 | 2.98 | 1.08 |
| CG4218 | SID104181731 | 18.7 | 5.73 |
| CG4218 | SID104206358 | 4.4 | 11.8 |
| PGRP-SC1b | SID104187007 | 5.98 | 10.4 |
| CG13841 | SID104194483 | 1.52 | 6.51 |
| CG13841 | SID104204801 | 17.3 | 13.1 |
| babos | SID104183715 | 1.8 | 1.88 |
| babos | SID104184189 | 13.7 | 30.8 |
| MED1 | SID104191600 | 3.43 | 11.7 |
| CG32642 | SID104198751 | 0.09 (active) | 0.01 |
| CG32642 | SID104206527 | 11.2 | 7.8 |
| PHDP | SID104184427 | 11.7 | 14.4 |
| GstE11 | SID104186718 | 5.56 | 13.7 |
| CG9445 | SID104184798 | 13.2 | – |
| CG4691 | SID104181742 | 24.1 | 22.1 |
| CG4691 | SID104206446 | 17.1 | 3.72 |
| CG16711 | SID104190012 | 1.69 | 3.1 |
| CG16711 | SID104202867 | 4.93 | 3.8 |
| CG10222 | SID104189506 | 0.63 | 1.2 |
| CG10222 | SID104206611 | 7.85 | 11.2 |
| CG34276 | SID104195603 | 5.19 | 3.27 |
| CG6695 | SID104195890 | 4.58 | 3.21 |
| CG6695 | SID104203304 | 13.9 | 8 |
| MP1 | SID104191916 | 1.85 | 2.36 |
| MP1 | SID104207121 | 0.44 | 7.51 |
| CG34129 | SID104195752 | 1.19 | 4.13 |
| CG8520 | SID104186998 | 7.64 | 13.1 |
| can | SID104190456 | 4.5 | 3.13 |
| Klp59C | SID104184140 | 21.4 | 27.3 |
| Klp59C | SID104203314 | 2.64 | 1.08 |
| Best1 | SID104196701 | 2.55 | 5.5 |
| Best1 | SID104205019 | 3.62 | 1.05 |
